The target of the experiment is SARS-CoV NSP14/NSP10 complex (Severe acute respiratory syndrome coronavirus (SARS-CoV), UniProt P0C6X7). The experiment is classed as biochemical.

As for `CC(C)=CCc1c(O)ccc(C(=O)/C=C/c2ccc(O)cc2)c1O` [Compound 77, Isobavachalcone], inhibition was half-maximal at 15 µM (IC50).

The IC50 is the concentration that inhibits the measured activity by half.

Values taken from US20250213569A1, “METHODS AND COMPOSITIONS FOR MEASURING AND INHIBITING EXONUCLEASE ACTIVITY” (priority 2020, published 2025).
